Earlier results in publication PMC12384205.

Tests used:
[1] = molecular target: integrin αvβ3 (Homo sapiens) (UniProt P06756); settings: cited from earlier work
[2] = molecular target: integrin αvβ6 (Homo sapiens) (UniProt P06756); settings: cited from earlier work

## SARS-CoV-2 S1-RBD RBD (from UniProt P0DTC2)
[1]
  Kd: > 0.5 µM
[2]
  Kd: 0.23 µM
